Source: US20250127801A1, “BRIDGED TRICYCLIC CARBAMOYLPYRIDONE COMPOUNDS AND USES THEREOF” (priority 2023, published 2025)

Experiments:
[1] = Thermodynamic solubility assay; conditions: 24-hour incubation, ambient temperature (22.3-23.8° C.), HPLC-UV 280 nm
MT-4 cells = assay: Cytotoxicity assay in MT-4 cells; conditions: read-out: MT4 CC50; uninfected MT-4 cells, 5 days incubation, Cell Titer Glo
HIV-1 (IIIB) = assay: Antiviral assay in MT-4 cells; type: cell-based; conditions: read-out: MT4 EC50; HIV-1 (IIIB) replication in MT-4 cells, 5 days incubation, Cell Titer Glo

| SMILES | Thermodynamic FaSSIF Solubility @ 24 h [1] | CC50 (MT-4 cells) | EC50 (HIV-1 (IIIB)) |
| --- | --- | --- | --- |
| CC1=NO[C@@]2(CC[C@H](C)N3C[C@H]2n2cc(C(=O)NCc4ccc(F)cc4F)c(=O)c(OC(=O)N(C)Cc4ccc(OP(=O)(O)O)cc4)c2C3=O)C1 | 5010 µg/mL |  |  |
| CC1=NO[C@@]2(CC[C@H](C)N3C[C@H]2n2cc(C(=O)NCc4ccc(F)cc4F)c(=O)c(OC(=O)N4CCOC[C@H]4CN(CC(=O)O)C(=O)OCOP(=O)(O)O)c2C3=O)C1 | 4725 µg/mL | 8.34 µM | 0.00142 µM |
| CC1=NO[C@@]2(CC[C@H](C)N3C[C@H]2n2cc(C(=O)NCc4ccc(F)cc4F)c(=O)c(OC(=O)N(C)Cc4ccc(C(=O)O)cc4OP(=O)(O)O)c2C3=O)C1 | 5070 µg/mL | 8.48 µM | 0.000634 µM |
| CC1=NO[C@@]2(CC[C@H](C)N3C[C@H]2n2cc(C(=O)NCc4ccc(F)cc4F)c(=O)c(OC(=O)N(C)Cc4cc(C(=O)O)ccc4OP(=O)(O)O)c2C3=O)C1 | 4740 µg/mL | 9.19 µM | 0.000691 µM |
| CC1=NO[C@@]2(CC[C@H](C)N3C[C@H]2n2cc(C(=O)NCc4ccc(F)cc4F)c(=O)c(OC(=O)N4CCOC[C@@H]4CN(CC(=O)O)C(=O)OCOP(=O)(O)O)c2C3=O)C1 | 4900 µg/mL | 10.5 µM | 0.000992 µM |
| CC1=NO[C@@]2(CC[C@H](C)N3C[C@H]2n2cc(C(=O)NCc4ccc(F)cc4F)c(=O)c(OC(=O)N4CCOC[C@H]4COP(=O)(O)O)c2C3=O)C1 |  |  | 0.0233 µM |
| CC1=NO[C@@]2(CC[C@H](C)N3C[C@H]2n2cc(C(=O)NCc4ccc(F)cc4F)c(=O)c(OC(=O)N(C)C[C@@H]4CCCN4C(=O)OCOP(=O)(O)O)c2C3=O)C1 |  | 13 µM | 0.000721 µM |
| CC1=NO[C@@]2(CC[C@H](C)N3C[C@H]2n2cc(C(=O)NCc4ccc(F)cc4F)c(=O)c(OC(=O)N4CCN(C)C[C@@H]4CN(CC(=O)O)C(=O)OCOP(=O)(O)O)c2C3=O)C1 |  | 11.1 µM | 0.00219 µM |
| CC1=NO[C@@]2(CC[C@H](C)N3C[C@H]2n2cc(C(=O)NCc4ccc(F)cc4F)c(=O)c(OC(=O)N4CCN(C)C[C@H]4CN(CC(=O)O)C(=O)OCOP(=O)(O)O)c2C3=O)C1 |  | 10.6 µM | 0.00238 µM |
| CC1=NO[C@@]2(CC[C@H](C)N3C[C@H]2n2cc(C(=O)NCc4ccc(F)cc4F)c(=O)c(OC(=O)N(C)Cc4ccccc4OP(=O)(O)O)c2C3=O)C1 | 5555 µg/mL | 17.1 µM | 0.00202 µM |
